The text below walks through data of PMC11794977, “Inhibitory Potential and Binding Thermodynamics of Scyllatoxin‐Based BH3 Domain Mimetics Targeting Repressor BCL2 Proteins” (Journal of Molecular Recognition, 2025).

SMILES strings stand for the structures. Where a SMILES comes first, the peptide text is derived from it.

The nature of the data set: Wavelength‐dependent CD spectropolarimetry, percent helicity. It is filed as physicochemical. Conditions: 10 μM peptide in binding buffer (50 mM Tris, 100 mM NaCl, pH 8.0), 20°C, calculated from MRE at 222 nm.

With `CC[C@H](NC(=O)[C@H](CO)NC(=O)CNC(C)=O)C(=O)N[C@@H](CCCCN)C(=O)N[C@@H](CCCCN)C(=O)N[C@@H](CC(C)C)C(=O)N[C@@H](CO)C(=O)N[C@H]1CSSC[C@@H](C(=O)N[C@@H](CCC(=O)O)C(=O)N[C@@H](CC)C(=O)N[C@H](C(=O)N[C@@H](CCCCN)C(=O)N[C@@H](Cc2c[nH]cn2)C(N)=O)C(C)C)NC(=O)[C@H](CCCCN)NC(=O)[C@H](CC(=O)O)NC(=O)CNC(=O)[C@H]([C@@H](C)CC)NC(=O)[C@H](CC)NC(=O)[C@H](CCCCN)NC(=O)CNC(=O)[C@H](CC(C)C)NC(=O)[C@H](CC(C)C)NC(=O)CNC(=O)[C@H](CC(=O)O)NC(=O)CNC(=O)[C@H]([C@@H](C)CC)NC(=O)[C@H](CC)NC(=O)[C@H](CCCCN)NC(=O)[C@H](CC(C)C)NC(=O)[C@H](CC)NC1=O` [^AcScTx‐Bax^ΔΔ,8–26] (HELM PEPTIDE1{[ac].G.S.[Abu].K.K.L.S.C.[Abu].L.K.[Abu].I.G.D.G.L.L.G.K.[Abu].I.G.D.K.C.E.[Abu].V.K.H.[am]}$PEPTIDE1,PEPTIDE1,9:R3-27:R3$$$V2.0), the percent helicity is listed as 39.3%.
In the case of `CC[C@H](NC(=O)[C@H](CO)NC(=O)CNC(C)=O)C(=O)N[C@@H](CCCCN)C(=O)N[C@@H](CCCCN)C(=O)N[C@@H](CC(C)C)C(=O)N[C@@H](CO)C(=O)N[C@@H](CC)C(=O)N[C@@H](CC)C(=O)N[C@@H](CC(C)C)C(=O)N[C@@H](CCCCN)C(=O)N[C@@H](CC)C(=O)N[C@H](C(=O)NCC(=O)N[C@@H](CC(=O)O)C(=O)NCC(=O)N[C@@H](CC(C)C)C(=O)N[C@@H](CC(C)C)C(=O)NCC(=O)N[C@@H](CCCCN)C(=O)N[C@@H](CC)C(=O)N[C@H](C(=O)NCC(=O)N[C@@H](CC(=O)O)C(=O)N[C@@H](CCCCN)C(=O)N[C@@H](CC)C(=O)N[C@@H](CCC(=O)O)C(=O)N[C@@H](CC)C(=O)N[C@H](C(=O)N[C@@H](CCCCN)C(=O)N[C@@H](Cc1c[nH]cn1)C(N)=O)C(C)C)[C@@H](C)CC)[C@@H](C)CC` [^AcScTx‐Bax^ΔΔΔ] (HELM PEPTIDE1{[ac].G.S.[Abu].K.K.L.S.[Abu].[Abu].L.K.[Abu].I.G.D.G.L.L.G.K.[Abu].I.G.D.K.[Abu].E.[Abu].V.K.H.[am]}$$$$V2.0), the percent helicity is listed as 13.1%.
